Measured data: PubChem BioAssay AID1259414 (Drosophila RNAi Screening Center, 2018)
The deposit covers about 24,000 reagents; this is an unselected part of those with a known target gene and a result. Over the whole deposit, about 1,210 (5%) were called active. 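Inactive calls also include excluded dsRNAs with several or no targets, genes unexpressed in JW18, and well A1, regardless of score.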 Entries without a mark were called inactive.

Aim: 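Fly genes that alter Wolbachia amount inside host cells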 (primary screen)
Cells: Drosophila JW18 cells infected with Wolbachia
Knock-down reagent: long dsRNA against Drosophila genes, 0.25 µg dsRNA per well of a 384-well plate
Timing: 5 days
Treatment: cells persistently infected with Wolbachia before knock-down; no added drug
Detection: 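Imaged fluorescence in situ signal for Wolbachia 23S rRNA per DAPI-counted host cell, given as a robust z-score within each plate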
Reading the numbers: Wolbachia per cell robust z: higher = more Wolbachia per host cell than the plate typical
Hit rule: 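Hit when robust z is 1.5 or more, or -1.5 or less, in at least two of three replicates; excludes dsRNAs with several or no targets, genes not expressed in JW18 and well A1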

gene | amplicon | Wolbachia per cell robust z, rep 1 | Wolbachia per cell robust z, rep 2 | Wolbachia per cell robust z, rep 3
Eip78C (Ecdysone-induced protein 78C) | DRSC23097 | -0.0217 | 0.609 | 0.553
Eip78C (Ecdysone-induced protein 78C) | DRSC40852 | -0.0326 | 0.996 | -1.88
Trm1 (tRNA methyltransferase 1) | DRSC02951 | -0.0878 | 0.139 | 0.167
NaPi-III (Na[+]-dependent inorganic phosphate cotransporter type III) | DRSC10893 | -0.261 | -2.12 | -0.408
NaPi-III (Na[+]-dependent inorganic phosphate cotransporter type III) | DRSC22953 | 0.337 | -0.103 | 1.15
NaPi-III (Na[+]-dependent inorganic phosphate cotransporter type III) | DRSC28299 | -1.36 | -0.331 | 0.194
NaPi-III (Na[+]-dependent inorganic phosphate cotransporter type III) | DRSC28977 | 0.697 | -0.151 | -3.56
CG15080 | DRSC06511 | 0.241 | 1.44 | 1.2
CG15080 | DRSC29374 | -0.144 | 0.14 | -0.473
Mrgn1 (Mahogunin ring finger 1) | DRSC20223 | 0.606 (active) | -1.84 | -2.16
stet (stem cell tumor) | DRSC08246 | -0.208 | 0.116 | 0.204
stet (stem cell tumor) | DRSC08283 | 0.0757 | -1.16 | 0.0586
CG8788 | DRSC07267 | -0.97 | -1.6 | -0.11
CG10467 | DRSC09728 | -0.0983 | 0.258 | -1.54
Plc21C (Phospholipase C at 21C) | DRSC00773 | 0.533 | 1.09 | 0.795
CG9344 | DRSC04541 | -0.494 | 0.246 | 0.468
tau | DRSC22987 | -0.0402 | -0.83 | -4.11
tau | DRSC23046 | 1.24 | 0.144 | -1.71
tau | DRSC25786 | -0.664 | -0.314 | -1.98
tau | DRSC38649 | 0.738 | 0.0461 | -0.197
tau | DRSC39085 | -3.45 | 0.4 | -0.367
ras (raspberry) | DRSC18825 | 0.356 | 0.559 | 0.299
ras (raspberry) | DRSC27137 | -0.2 | -0.902 | 0.142
CG9777 | DRSC20208 | 1.42 | 1.34 | -0.614
MED14 (Mediator complex subunit 14) | DRSC08235 | 1.24 | 0.112 | -0.332
MED14 (Mediator complex subunit 14) | DRSC23587 | 2.22 (active) | 2.14 | 0.798
CG42327 | DRSC14936 | -1.5 | 0.612 | 0.747
CG42327 | DRSC14937 | -1.99 | 0.135 | -0.354
CG42327 | DRSC23337 | 0.595 | 0.465 | 0.79
CG42327 | DRSC28159 | -0.698 | 1.04 | -0.309
CG42327 | DRSC28248 | -0.886 | 0.257 | -0.315

4 consecutive records already listed:
gene | amplicon | Wolbachia per cell robust z, rep 1 | Wolbachia per cell robust z, rep 2 | Wolbachia per cell robust z, rep 3
CG9344 | DRSC04541 | -0.494 | 0.246 | 0.468
tau | DRSC22987 | -0.0402 | -0.83 | -4.11
tau | DRSC23046 | 1.24 | 0.144 | -1.71
tau | DRSC25786 | -0.664 | -0.314 | -1.98
